Test system: PL^pro-BL2
Assay: Two-color flow cytometry DUB activity assay, PLpro-BL2 chimera (BL2 loop of MERS)
Details: 5 μM GRL0617, Figure 2C

Cc1ccc(N)cc1C(=O)N[C@H](C)c1cccc2ccccc12
Percent inhibition of DUB activity: < 2%
